Test [1] concerns the target Replicase polyprotein 1ab (Middle East respiratory syndrome-related coronavirus (isolate UnitedKingdom/H123990006/2012) (Betacoronavirus England 1) (Humancoronavirus EMC)) (UniProt K9N7C7). In words: Binding affinity to MERS-CoV papain-like protease assessed as association rate constant by SPR analysis.
Test [2] shares this target. Put plainly: Binding affinity to MERS-CoV papain-like protease assessed as dissociation rate constant by SPR analysis. In general terms: SPR reads the build-up and loss of mass on a sensor chip optically.

On to `Cc1cc(C)n(S(=O)(=O)c2ccc(N)cc2)c(=O)n1`, for which the Ka in test [1] amounted to 3.2 ×10³ /M/s. Also, the Kdiss in test [2] is 3 ×10⁻² /s.

With `O=Cc1ccc(O)c(O)c1` [PROTOCATECHUALDEHYDE], in test [1], the Ka was 1.88 ×10² /M/s. The Kdiss in test [2] was 4.18 ×10⁻² /s.

For the origin of these results see ChEMBL document CHEMBL4392846, “Identification and design of novel small molecule inhibitors against MERS-CoV papain-like protease via high-throughput screening and molecular modeling” (Bioorg Med Chem, 2019).
